Experimental data: patent US6689782B2, “Fungal efflux pump inhibitors” (priority 2001, dated 2004)

Test system: C. glabrata YEM19 (over-expressing the CgCDR1 and CgCDR2 pumps)
Assay: checkerboard assay / broth microdilution, potentiation of fluconazole vs. C. glabrata
Settings: Nakaseomyces glabratus, 48 h

| Structure (SMILES) | MIC |
| --- | --- |
| COc1ccc(N(C(=O)Nc2ccc(F)cc2)C(C)c2nc3ccc(Cl)cc3c(=O)n2N2CCN(C(=O)C3CCCN3)CC2)c(OC)c1 (racemic) [Compound 238] | > 32 µg/mL |
| COc1ccc(N(C(=O)Nc2ccc(F)cc2)C(C)c2nc3cc(Cl)ccc3c(=O)n2N2CCN(C(=O)[C@@H]3CCCN3)CC2)c(OC)c1 (mixture of isomers) [Compound 239] | > 32 µg/mL |
| CC(c1nc2ccccc2c(=O)n1N1CCN(C(=O)[C@@H]2CCCN2)CC1)N(C(=O)Nc1ccc(F)cc1)c1ccc(OCC2CC2)cc1 (mixture of isomers) [Compound 346] | > 32 µg/mL |
| COc1ccc(N(C(=O)Nc2ccc(OC(F)F)cc2)C(C)c2nc3ccccc3c(=O)n2N2CCN(C)CC2)c(OC)c1 (stereo not drawn) [Compound 214] | > 32 µg/mL |
| COC(=O)N[C@H]1CCN(C(=O)N2CCN(n3c(C(C)N(C(=O)Nc4ccc(F)cc4)c4ccc(OC)cc4OC)nc4ccccc4c3=O)CC2)C1 (mixture of isomers) [Compound 237] | > 32 µg/mL |
| COc1ccc(N(C(=O)Nc2ccc(F)cc2)C(C)c2nc3cc(Cl)ccc3c(=O)n2N2CCN(C(=O)C[C@H]3CCCN3)CC2)c(OC)c1 (mixture of isomers) [Compound 314] | > 32 µg/mL |
| COc1ccc(N(C(=O)Nc2ccc3c(c2)OCO3)C(C)c2nc3cc(Cl)ccc3c(=O)n2N2CCN(C)CC2)c(OC)c1 (racemic) [Compound 228] | > 32 µg/mL |
| COC(=O)N[C@@H](CO)C(=O)N1CCN(n2c(C(C)N(C(=O)Nc3ccc(F)cc3)c3ccc(OC)cc3OC)nc3ccccc3c2=O)CC1 (mixture of isomers) [Compound 278] | > 32 µg/mL |
| COc1ccc(N(C(=O)Nc2ccc(F)cc2)C(C)c2nc3ccccc3c(=O)n2N2CCN(C(=O)C3CCCC3N)CC2)c(OC)c1 (racemic) [Compound 231] | > 32 µg/mL |
| COc1ccc(N(C(=O)Nc2ccc(F)cc2)C(C)c2nc3ccccc3c(=O)n2N2CCN(C(=O)C3CCCO3)CC2)c(OC)c1 (racemic) [Compound 247] | > 32 µg/mL |
| COC(=O)NC1CCCC1C(=O)N1CCN(n2c(C(C)N(C(=O)Nc3ccc(F)cc3)c3ccc(OC)cc3OC)nc3ccccc3c2=O)CC1 (racemic) [Compound 232] | > 32 µg/mL |
| COc1ccc(N(C(=O)Nc2ccc(C#N)cc2)C(C)c2nc3ccccc3c(=O)n2N2CCN(C)CC2)c(OC)c1 (stereo not drawn) [Compound 213] | > 32 µg/mL |
| COc1ccc(N(C(=O)Nc2ccc(F)cc2)C(C)c2nc3ccccc3c(=O)n2N2CCN(C(=O)C3CCN(S(=O)(=O)N(C)C)C3)CC2)c(OC)c1 (racemic) [Compound 251] | > 32 µg/mL |
| COc1ccc(N(C(=O)Nc2ccc(F)cc2)C(C)c2nc3ccccc3c(=O)n2N2CCN(C(=O)C3CCCCN3)CC2)c(OC)c1 (racemic) [Compound 243] | 16 µg/mL |
| COc1ccc(N(C(=O)Nc2ccc(F)cc2)C(C)c2nc3ccccc3c(=O)n2N2CCN(C(=O)c3nccnc3N)CC2)c(OC)c1 (racemic) [Compound 241] | > 32 µg/mL |
| COC(=O)N[C@H](C(=O)N1CCN(n2c(C(C)N(C(=O)Nc3ccc(F)cc3)c3ccc(OC)cc3OC)nc3ccccc3c2=O)CC1)[C@H](C)O (stereo partly drawn) [Compound 268] | > 32 µg/mL |
| COc1ccc(N(C(=O)Nc2ccc(F)cc2)C(C)c2nc3ccccc3c(=O)n2N2CCN(C(=O)C3CNCCN3)CC2)c(OC)c1 (racemic) [Compound 242] | > 32 µg/mL |
| COc1ccc(N(C(=O)Nc2ccc(F)cc2)C(C)c2nc3ccccc3c(=O)n2N2CCN(C(=O)[C@@H]3CCC(=O)N3)CC2)c(OC)c1 (mixture of isomers) [Compound 260] | > 32 µg/mL |
| COC(=O)NC1CCN(C(=O)N2CCN(n3c(C(C)N(C(=O)Nc4ccc(F)cc4)c4ccc(OC)cc4OC)nc4ccccc4c3=O)CC2)C1 (racemic) [Compound 234] | > 32 µg/mL |
| CCOC(=O)N[C@@H](CCS(C)(=O)=O)C(=O)N1CCN(n2c(C(C)N(C(=O)Nc3ccc(F)cc3)c3ccc(OC)cc3OC)nc3ccccc3c2=O)CC1 (mixture of isomers) [Compound 275] | > 32 µg/mL |

| Structure (SMILES) | MIC |
| --- | --- |
| COc1ccc(N(C(=O)Nc2ccc(OC(F)F)cc2)C(C)c2nc3cc(F)c(F)cc3c(=O)n2N2CCN(C)CC2)c(OC)c1 (racemic) [Compound 224] | > 32 µg/mL |
| COc1ccc(N(C(=O)Nc2ccc(Cl)cc2)C(C)c2nc3cc(F)ccc3c(=O)n2N2CCN(C)CC2)c(OC)c1 (racemic) [Compound 216] | > 32 µg/mL |
| COC(=O)NCC(=O)N1CCN(n2c(C(C)N(C(=O)Nc3ccc(F)cc3)c3ccc(OC)cc3OC)nc3ccccc3c2=O)CC1 (stereo not drawn) [Compound 324] | > 32 µg/mL |
| COc1ccc(N(C(=O)Nc2ccc(F)cc2)C(C)c2nc3ccccc3c(=O)n2N2CCN(C(=O)C3CCCNC3)CC2)c(OC)c1 (racemic) [Compound 254] | > 32 µg/mL |
| CC[C@H](N)C(=O)N1CCN(n2c(C(C)N(C(=O)Nc3ccc(F)cc3)c3ccc(OC)cc3OC)nc3cc(F)ccc3c2=O)CC1 (mixture of isomers) [Compound 283] | > 32 µg/mL |
| CC(c1nc2ccccc2c(=O)n1N1CCN(C(=O)[C@H](C)N)CC1)N(C(=O)Nc1ccc(F)cc1)c1ccc(OCC2CC2)cc1OCC1CC1 (mixture of isomers) [Compound 347] | > 32 µg/mL |
| COc1ccc(N(C(=O)Nc2ccc(F)cc2)C(C)c2nc3ccccc3c(=O)n2N2CCN(C(=O)[C@@H]3CCCN3C3CC3)CC2)c(OC)c1 (mixture of isomers) [Compound 245] | > 32 µg/mL |
| COc1ccc(N(C(=O)Nc2ccc(F)cc2)C(C)c2nc3ccccc3c(=O)n2N2CCN(C(=O)[C@@H](NS(C)(=O)=O)[C@H](C)O)CC2)c(OC)c1 (mixture of isomers) [Compound 273] | > 32 µg/mL |
| COc1ccc(N(C(=O)Nc2ccc(OC(F)F)cc2)C(C)c2nc3cc(Cl)ccc3c(=O)n2N2CCN(C)CC2)c(OC)c1 (racemic) [Compound 225] | 32 µg/mL |
| CC(c1nc2ccccc2c(=O)n1N1CCN(C(=O)[C@@H]2CCCN2)CC1)N(C(=O)Nc1ccc(F)cc1)c1ccccc1OCC1CC1 (mixture of isomers) [Compound 345] | > 32 µg/mL |
| COc1ccc(N(C(=O)Nc2ccc(F)cc2)C(C)c2nc3ccccc3c(=O)n2N2CCN(C(=O)C3CCN(S(C)(=O)=O)C3)CC2)c(OC)c1 (racemic) [Compound 250] | > 32 µg/mL |
| COc1ccc(N(C(=O)Nc2ccc(F)cc2)C(C)c2nc3ccccc3c(=O)n2N2CCN(C(=O)CNS(C)(=O)=O)CC2)c(OC)c1 (racemic) [Compound 325] | > 32 µg/mL |
| COc1ccc(N(C(=O)Nc2cccc(Cl)c2)C(C)c2nc3cc(F)ccc3c(=O)n2N2CCN(C)CC2)c(OC)c1 (racemic) [Compound 215] | > 32 µg/mL |
| COc1ccc(N(C(=O)Nc2cccc(Cl)c2)C(C)c2nc3cc(F)c(F)cc3c(=O)n2N2CCN(C)CC2)c(OC)c1 (racemic) [Compound 220] | > 32 µg/mL |
| COc1ccc(N(C(=O)Nc2ccc(F)cc2)C(C)c2nc3ccccc3c(=O)n2N2CCN(C(=O)[C@@H]3CCCN3C)CC2)c(OC)c1 (mixture of isomers) [Compound 246] | > 32 µg/mL |
| COc1ccc(N(C(=O)Nc2ccc(F)cc2)C(C)c2nc3ccccc3c(=O)n2N2CCN(C(=O)C3CCNC3)CC2)c(OC)c1 (racemic) [Compound 248] | > 32 µg/mL |
| COc1ccc(N(C(=O)Nc2ccc(F)cc2)C(C)c2nc3ccccc3c(=O)n2N2CCN(c3nncs3)CC2)c(OC)c1 (racemic) [Compound 229] | > 32 µg/mL |
| COC(=O)N[C@@H](C)C(=O)N1CCN(n2c(C(C)N(C(=O)Nc3ccc(F)cc3)c3ccc(OCC4CC4)cc3OCC3CC3)nc3ccccc3c2=O)CC1 (mixture of isomers) [Compound 348] | > 32 µg/mL |
| COC(=O)N1CCC(C(=O)N2CCN(n3c(C(C)N(C(=O)Nc4ccc(F)cc4)c4ccc(OC)cc4OC)nc4ccccc4c3=O)CC2)C1 (racemic) [Compound 249] | > 32 µg/mL |
